Test results taken from US20090203616A1.

Target: α9α10 subtype of the nicotinic acetylcholine receptor (nAChR) (rat) (UniProt P43144)
Test: cell-based or functional assay

α-conotoxin ArIB [V11L;V16A] (peptide) gave an IC50 (activity on α9α10 nAChR, oocytes as in Example 1) greater than 10 µM.
In the case of α-conotoxin PeIA (peptide), the IC50 (activity on α9α10 nAChR, oocytes as in Example 1) is reported as 0.02 µM.
